Pooled drug test results. Numbers come from NIAID ChemDB, via PubChem.

Shared fields: cytotoxicity tests; endpoint: CC50

An empty or dashed field is not shown. CCn: concentration that lowers growth or viability of the cells by n%. Two numbers with a dash give a range or band. Rows are shuffled and stem from different studies.

structure	cell line	method	value
CCCCOc1ccc(-c2cc3c(-c4ccnc(NC5CCCC5)n4)ccc(NC4CCCC4)n3n2)cc1	VERO 76		>100 µM
Cc1cccc(Nc2s[nH]c(=O)c2C#N)c1	Huh7		>50 µM
O=C(O)c1ccc(-c2ccc(/C=C3\SC(=S)N(CCc4ccc(Cl)c(Cl)c4)C3=O)o2)cc1O	BAE	MTT	86 µM
Cc1cc(O)c(C(=O)/C=C/C=C2/N(C)c3ccccc3C2(C)C)c(=O)o1	HCT116	MTT	>10 µM
CCCN(Cc1cccc(OCCCCCC(=O)OCC)c1)C(=O)c1ccc(-c2ccc3c(c2)OCO3)cc1	RAJI		>20 µM
CC(C)c1ccc(NC(=O)NOCCCCCC(=O)NO)cc1	NFF cells	sulforhodamine	7.6 µM
CC(C)c1c(OCC(O)CN2CCN(C)CC2)ccc2c1CCC1C(C)(C)CCC[C@]21C	CHO	MTT	3.73 µM
Cc1cc(Cl)ccc1NCc1cc2ccccc2oc1=O	Ava5	MTS	188 µM
Fc1ccc(-c2cc3c(-c4ccnc(NC5CCCC5)n4)ccc(NC4CCC4)n3n2)cc1	VERO 76		>40 µM
CC(C)c1c(OCC(O)CN2CCN(c3ccnc4cc(Cl)ccc34)CC2)ccc2c1CCC1C(C)(C)CCC[C@]21C	CHO	MTT	94.19 µM
N#Cc1cn(CCSc2cc(C(F)(F)F)nc3ccccc23)c(=O)[nH]c1=O	MT-2 human T-cells	MTT	>100 µM
O=c1oc2ccccc2cc1CNc1ccccc1	Ava5	MTS	>200 µM
Oc1cccc(Nc2ncnc3sc(-c4ccccc4)cc23)c1	MT-2 human T-cells	MTT	17 µM
O=C(NCCCCl)Oc1ccc(Br)cc1C(=O)Nc1ccc(C(F)(F)F)cc1	Mono Mac 6	MTT	5.7 µM
CCOC(=O)c1cnc2ccc3c(C)cc(=O)[nH]c3c2c1C	CAKI-1		11 µg/mL
O=C(Oc1ccc(Br)cc1C(=O)Nc1ccc(C(F)(F)F)cc1)c1cnc(Cl)cn1	Mono Mac 6	MTT	1.1 µM
O=C(CCCCCCC(=O)Nc1ccccc1)NO	NFF cells	sulforhodamine	4.9 µM
O=C(Oc1ccc(Br)cc1C(=O)Nc1ccc(Cl)c(Cl)c1)c1cnc(Cl)cn1	Mono Mac 6	MTT	5.7 µM
OC[C@H]1O[C@@H](n2ccc3c(-c4cccc5c4oc4ccccc45)nc(Cl)nc32)C(O)C1O	CCRF-CEM leukemia cells	MTT	49.8 µM
CC1=C[C@H](O)[C@@H](/C=C(\C)C/C=C/C(C)(C)O)C1=O	HOG.R5		>80 µM
O=C(Oc1ccc(Cl)cc1C(=O)Nc1ccc(Cl)c(Cl)c1)c1cnc(Cl)cn1	Mono Mac 6	MTT	10.1 µM
C=C(C)C(=O)CC/C(C)=C/[C@H]1C(=O)C(C)=C[C@@H]1O	HOG.R5		10.1–20.2 µM
OC[C@H]1O[C@@H](n2ccc3c(-c4cc5ccccc5o4)nc(F)nc32)C(O)C1O	MRC-5 fibroblast	MTT	>150 µM
CC[C@@H]1/C=C(\C)C[C@H](C)C[C@H](OC)[C@H]2O[C@@](O)(C(=O)C(=O)N3CCCC[C@H]3C(=O)O[C@H](/C(C)=C/[C@H]3CC[C@H](O)[C@H](OC)C3)[C@H](C)[C@@H](O)CC1=O)[C@H](C)C[C@@H]2OC	HEK-297		14 µg/mL
N#Cc1c(Nc2cc(F)c(Br)c(F)c2)s[nH]c1=O	Huh7		>50 µM
CC(C)C[C@@H]1NC(=O)[C@H](Cc2ccccc2)NC(=O)[C@@H](CCCCN)NC(=O)[C@H](CC(N)=O)NC(=O)[C@H](C(C)C)NC(=O)[C@@H](CC(C)C)NC1=O	Lung carcinoma cells	MTT	>30 µM
Cc1nc(N)nc2c1ccn2[C@@H]1O[C@H](CO)C(O)C1O	MRC-5 fibroblast	MTT	130.2 µM
CC(C)c1c(OCC(O)CNCc2ccccc2)ccc2c1CCC1C(C)(C)CCC[C@]21C	CHO	MTT	14.41 µM
N#Cc1c(Nc2ccccc2Cl)s[nH]c1=O	Huh7		>50 µM
C=C(C)C(O)CC/C(C)=C/[C@H]1C(=O)C(C)=C[C@@H]1O	HOG.R5		80 µM
CN(C)c1ccc(Nc2s[nH]c(=O)c2C#N)c2ccccc12	Huh7		>50 µM
N#Cc1nc(Cc2cccc3ccccc23)oc1NCC1CCCO1	MT-2 human T-cells	MTT	37 µM
Cc1ccc(NCc2cc3ccccc3oc2=O)c(C)c1	Ava5	MTS	>200 µM
Cc1cc(O)c(C(=O)/C=C/c2ccc(N(C)C)s2)c(=O)o1	HCT116	MTT	>10 µM
N#Cc1cccc(Nc2s[nH]c(=O)c2C#N)c1	Huh7		>50 µM
Cc1cc(O)c(C(=O)/C=C/c2ccc(Br)cc2)c(=O)o1	HCT116	MTT	>10 µM
CC(C)=CCC/C(C)=C/CC/C(=C\CC/C(C)=C/C(=O)O)C(=O)O	BC	resazurin	>20 µg/mL
OC[C@H]1O[C@@H](n2ccc3c(-c4cccs4)nc(F)nc32)C(O)C1O	BJ fibroblasts	MTT	136 µM
N#Cc1c(Nc2ccc(Br)nc2)s[nH]c1=O	Huh7		>50 µM
Nc1nc(-c2ccc(NC(=O)CN(CC3CCCCC3)S(=O)(=O)N3CCOCC3)cc2)cs1	HS68		>12 µM
Cc1cc(O)c(C(=O)/C=C/c2ccc(F)cc2)c(=O)o1	HCT116	MTT	>10 µM
O=C(Oc1ccc(Cl)cc1C(=O)Nc1ccc(C(F)(F)F)cc1)c1cnc(Cl)cn1	Mono Mac 6	MTT	1.1 µM
OC[C@H]1O[C@@H](n2ccc3c(-c4cc5ccccc5o4)nc(Cl)nc32)C(O)C1O	MRC-5 fibroblast	MTT	108.6 µM
CCc1ccc(CCN=C2NC(=O)/C(=C/c3ccc(-c4ccc(C(=O)O)c(O)c4)o3)S2)cc1	BAE	MTT	20 µM
CCCC(CCC)N(CC(=O)Nc1ccc(-c2csc(N)n2)cc1)C(=O)C1CCCCC1	HS68		>7 µM
CC(C)c1c(OCC(O)CN2CCCCC2)ccc2c1CCC1C(C)(C)CCC[C@]21C	CHO	MTT	2.99 µM
CC(C)C[C@@H]1NC(=O)[C@H](Cc2c[nH]c3ccccc23)NC(=O)CNC(=O)[C@H](CC(N)=O)NC(=O)[C@H](C(C)C)NC(=O)[C@H](CC(C)C)NC1=O	Lung carcinoma cells	MTT	>30 µM
CCOC(=O)CCCCCOc1cccc(CN(C(=O)c2ccc(-c3ccc4c(c3)OCO4)cc2)C(C)C)c1	RAJI		>20 µM
CC(C)C[C@@H]1NC(=O)[C@H](Cc2c[nH]c3ccccc23)NC(=O)CNC(=O)[C@H](CO)NC(=O)[C@H](C(C)C)NC(=O)[C@@H](CC(C)C)NC1=O	Lung carcinoma cells	MTT	>30 µM
Clc1ccc(-c2cc3c(-c4ccnc(NC5CCCC5)n4)ccc(NC4CCCC4)n3n2)cc1	VERO 76		>40 µM
Cc1ccc(-n2ncc3c(=O)[nH]c(SCC(=O)c4ccc(Cl)cc4)nc32)cc1	MT-2 human T-cells	MTT	>100 µM
CCC(C)[C@@H]1NC(=O)[C@@H](CC(C)C)NC(=O)[C@H](CC(C)C)NC(=O)[C@H](Cc2c[nH]c3ccccc23)NC(=O)CNC(=O)[C@H](CC(N)=O)NC1=O	Colorectal carcinoma cells	MTT	>30 µM
COc1ccc(CCNC(=O)CCCCC(C)=O)cc1OC	RAJI		<7.5 µM
O=C(Nc1ccc(C(F)(F)F)cc1)c1cc(Br)ccc1O	Mono Mac 6	MTT	7.6 µM
CN1CCN(CC(O)COc2cccc3ccccc23)CC1	CHO	MTT	261 µM
CC(C)C[C@@H]1NC(=O)[C@H](Cc2c[nH]c3ccccc23)NC(=O)[C@@H](CCCN)NC(=O)[C@H](CC(=O)NCC2CCCCC2)NC(=O)[C@H](C(C)C)NC(=O)[C@@H](CC(C)C)NC1=O	Hep2G	luminescence	39.8 µM
CC(C)c1c(O)ccc2c1CCC1C(C)(C)CCC[C@]21C	CHO	MTT	170 µM
CS(=O)(=O)Nc1cccc(-c2cc3c(-c4ccnc(NC5CCCC5)n4)ccc(NC4CCCC4)n3n2)c1	VERO 76		>40 µM
Cc1ccccc1CN(CC(=O)Nc1ccc(-c2csc(N)n2)cc1)C(=O)Cc1ccccn1	HS68		>25 µM
O=C1/C(=C/c2ccc(-c3cc(C(F)(F)F)ccc3Cl)o2)SC(=S)N1Cc1ccc(Cl)cc1	BAE	MTT	2.4 µM
CCN(CC)CC(O)COc1ccc2c(c1C(C)C)CCC1C(C)(C)CCC[C@]21C	CHO	MTT	7.73 µM
Nc1nc(-c2ccc(NC(=O)NCc3ccccc3F)cc2)cs1	HS68		<4 µM
CC(C)NCC(O)COc1ccc2c(c1C(C)C)CCC1C(C)(C)CCC[C@]21C	CHO	MTT	1.28 µM
O=C(CCCCCCCCc1ccccc1)c1c(O)cccc1O	BC	resazurin	>60 µg/mL
CCOC(=O)CCCCCOc1cccc(CN(C(=O)c2ccc(-c3cccc4ccccc34)cc2)C(C)C)c1	RAJI		>20 µM
CCOC(=O)c1ccc(NCc2cc3ccccc3oc2=O)cc1	Ava5	MTS	128 µM
Cc1cc(O)c(C(=O)/C=C/c2ccc(Br)s2)c(=O)o1	HCT116	MTT	>10 µM

Repeating the final 9 entries:

structure | cell line | method | value
Cc1ccccc1CN(CC(=O)Nc1ccc(-c2csc(N)n2)cc1)C(=O)Cc1ccccn1 | HS68 |  | >25 µM
O=C1/C(=C/c2ccc(-c3cc(C(F)(F)F)ccc3Cl)o2)SC(=S)N1Cc1ccc(Cl)cc1 | BAE | MTT | 2.4 µM
CCN(CC)CC(O)COc1ccc2c(c1C(C)C)CCC1C(C)(C)CCC[C@]21C | CHO | MTT | 7.73 µM
Nc1nc(-c2ccc(NC(=O)NCc3ccccc3F)cc2)cs1 | HS68 |  | <4 µM
CC(C)NCC(O)COc1ccc2c(c1C(C)C)CCC1C(C)(C)CCC[C@]21C | CHO | MTT | 1.28 µM
O=C(CCCCCCCCc1ccccc1)c1c(O)cccc1O | BC | resazurin | >60 µg/mL
CCOC(=O)CCCCCOc1cccc(CN(C(=O)c2ccc(-c3cccc4ccccc34)cc2)C(C)C)c1 | RAJI |  | >20 µM
CCOC(=O)c1ccc(NCc2cc3ccccc3oc2=O)cc1 | Ava5 | MTS | 128 µM
Cc1cc(O)c(C(=O)/C=C/c2ccc(Br)s2)c(=O)o1 | HCT116 | MTT | >10 µM